Library screen at single concentrations

The values are deposited in ChEMBL (CHEMBL3988442, “University of Dundee, Small-Polar-MMV Screening Library” (2021)).

Results are given as percent effect. The record does not define 0% and 100%; most values in the screen are far below 50% and negative numbers occur (in some assays of this library far below -100). This is part of a subset picked to be rich in strong results.

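Whole-cell growth test on Mycobacterium tuberculosis, read after 3 days in glucose-containing 7H9 medium; the read-out is not stated. Concentration: 500 µM. The record gives no direction; compounds that gave an IC50 in retests scored well above the rest, so higher reads as more growth inhibition. Size under these conditions: about 18,000 compounds, about 1,400 of them at 50% or above in at least one test.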

{"smiles": "CC(C)Cc1cc(CNC(=O)CSc2cnn[nH]2)no1", "Percent Effect": 49.42}
{"smiles": "NCC1CCCN(C(N)=O)C1", "stereo": "centres undefined", "Percent Effect": 1.269}
{"smiles": "CCn1cnnc1CNC(=O)N1CCCN(C)CC1", "Percent Effect": -3.238}
{"smiles": "CN1CC[C@H]2CN(C(=O)CCOc3ccccc3)C[C@H]21", "Percent Effect": 12.69}
{"smiles": "COCCNCCNC(=O)c1csc2ccccc12", "Percent Effect": 40.45}
{"smiles": "CC(Cn1cncn1)NCc1ccsc1", "stereo": "centres undefined", "Percent Effect": 25.92}
{"smiles": "O=C1NCC(C(=O)NCc2cc(F)cc(Br)c2)N1", "stereo": "centres undefined", "Percent Effect": 12.82}
{"smiles": "CC(C)C(=O)N1CCC(C(=O)c2ccc(O)cc2)CC1", "Percent Effect": 66.13}
{"smiles": "N#Cc1ccc(S(=O)(=O)NCCCN)cc1C(F)(F)F", "Percent Effect": 61.79}
{"smiles": "CCNS(=O)(=O)CCNC(=O)c1cc(C)ccc1O", "Percent Effect": 38.14}
{"smiles": "O=C(NCCn1cccn1)c1cc2sccc2[nH]1", "Percent Effect": 14.68}
{"smiles": "Cc1ccc(NC(=O)CCN2CCN(C)CC2)cc1C", "Percent Effect": 31.93}
{"smiles": "CC(=O)Nc1cccc(CSC(C)CCO)c1", "stereo": "centres undefined", "Percent Effect": 20.4}
{"smiles": "Cn1nccc1C(=O)N1CCN(c2ncccn2)CC1", "Percent Effect": 13.34}
{"smiles": "CNS(=O)(=O)CC(=O)N(C)CCc1ccccc1F", "Percent Effect": -8.404}
{"smiles": "Cc1ccc(C(=O)NCCCS(C)(=O)=O)c(O)c1", "Percent Effect": 26.46}
{"smiles": "CN1CCN(C(=O)C2CC2)c2ccccc2C1", "Percent Effect": 4.853}
{"smiles": "Fc1cccc(-c2noc(C3CCCN3)n2)c1", "stereo": "centres undefined", "Percent Effect": 64.2}
{"smiles": "CC(C(N)=O)N1CCNCC1", "stereo": "centres undefined", "Percent Effect": -6.649}
{"smiles": "Cc1cccnc1CCNC(=O)Cc1cccnc1", "Percent Effect": 14.94}
{"smiles": "CO[C@H]1CN[C@H](c2nncn2C)C1", "Percent Effect": 17.05}
{"smiles": "COc1c[nH]c(C(=O)NCCSC(F)(F)F)cc1=O", "Percent Effect": 2.854}
{"smiles": "CCNC(=O)Cc1nnc(-c2cccc(F)c2)o1", "Percent Effect": 21.24}
{"smiles": "COCC(C)OC(=O)c1scnc1C", "stereo": "centres undefined", "Percent Effect": -15.01}
{"smiles": "Cc1ccc(C)c(-n2c(C)cc(=O)[nH]c2=O)c1", "Percent Effect": -10.85}
{"smiles": "O=C(c1ccccc1F)N1CCNCC1", "Percent Effect": -9.94}
{"smiles": "O=C(COC(=O)CCC(=O)c1cccs1)NC1CC1", "Percent Effect": 0.7476}
{"smiles": "NCCc1n[nH]c(=O)n1CCc1ccccc1", "Percent Effect": 11.21}
{"smiles": "Cc1nnsc1C(=O)Nc1ccncc1", "Percent Effect": 12.91}
{"smiles": "CCn1nc(C)cc1C(=O)NC(C)c1nc(C)c[nH]1", "stereo": "centres undefined", "Percent Effect": 6.612}
{"smiles": "CCO[C@H]1CN(c2ncc(F)cn2)C[C@@H]1O", "Percent Effect": -1.345}
{"smiles": "CC(C)CC(=O)NCc1cccnc1N1CCOCC1", "Percent Effect": -10.75}
{"smiles": "C=C(C)C(C)(C)C(=O)N[C@@H]1CCOC[C@H]1OCCO", "Percent Effect": -16.45}
{"smiles": "Cc1cnn(CCNCc2cccc3c2OCO3)c1", "Percent Effect": 51.87}
{"smiles": "O=C(NCCNC(=O)c1ccccc1)Nc1nncs1", "Percent Effect": 7.748}
{"smiles": "CCCn1c(C)nnc1CSc1ncnn1C", "Percent Effect": -10.87}
{"smiles": "CN(C1CCCCC1)S(=O)(=O)NC1CCCCNC1=O", "stereo": "centres undefined", "Percent Effect": 54.93}
{"smiles": "Cn1ncnc1NC(=O)CCc1ccc(F)cc1", "Percent Effect": -1.47}
{"smiles": "CCn1cc(CNC2(C(=O)OC)CC2)cn1", "Percent Effect": 8.928}
{"smiles": "CCOC(=O)c1cccnc1-n1cc(Br)cn1", "Percent Effect": 49.87}
{"smiles": "O=C(NCCN1CCNCC1)C1CCCC1", "Percent Effect": -0.8019}
{"smiles": "COc1ccc(NC(=O)CCn2ccnc2)cc1", "Percent Effect": 10.97}
{"smiles": "c1cc2nnnn2nc1NCCN1CCCCCC1", "Percent Effect": 0.489}
{"smiles": "Cc1cc(C(=O)NCCc2ccccc2F)[nH]n1", "Percent Effect": 48.85}
{"smiles": "CN(Cc1ccco1)S(=O)(=O)CCN1CCCC1", "Percent Effect": 41.98}
{"smiles": "Cc1nnc(CN2CCCSCC2)o1", "Percent Effect": 28.81}
{"smiles": "CN(Cc1c(F)cccc1Cl)S(=O)(=O)N1CCOCC1", "Percent Effect": 66.06}
{"smiles": "Cc1nnsc1CN(C)C(=O)c1cccc2c1OCC2", "Percent Effect": 29.06}
{"smiles": "CNCc1cscn1", "Percent Effect": 20.9}
{"smiles": "NCC1(CO)CC(c2ccccc2)C1", "stereo": "centres undefined", "Percent Effect": 27.04}
{"smiles": "Cc1cccc(CN(CC(N)=O)Cc2ccccn2)c1", "Percent Effect": 59.32}
{"smiles": "COc1cc(C(=O)N2CCCC[C@H](N(C)C)C2)ccn1", "Percent Effect": 13.63}
{"smiles": "CCOc1cccc(CSc2nc(=O)ccn2CC)n1", "Percent Effect": 50.62}
{"smiles": "Cc1cccn2cc(CS(=O)(=O)CCCC#N)nc12", "Percent Effect": 2.23}
{"smiles": "COc1ccc(C(CN)N2CCOCC2)cc1OC", "stereo": "centres undefined", "Percent Effect": 0.5865}
{"smiles": "CS(=O)(=O)c1nccn1CCOc1ccccc1", "Percent Effect": 30.5}
{"smiles": "CCC(CNS(=O)(=O)c1cnn(C)c1)N1CCCC1", "stereo": "centres undefined", "Percent Effect": -1.277}
{"smiles": "C=C(C)COc1ccc(C(=O)NCC[C@@H](C)CO)cc1", "Percent Effect": 67.6}